## Percent effect of library compounds

A: 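Whole-cell growth test on Mycobacterium tuberculosis, read after 3 days in glucose-containing 7H9 medium; the read-out is not stated. Tested at 500 µM. Direction is inferred from retests: higher values go with more growth inhibition. About 18,000 compounds were tested under these conditions; 7.9% (about 1,400) showed 50% or more at least once.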
B: 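Phenotypic screen: M. tuberculosis growth, cholesterol and DPPC medium, 4 days; the read-out is not stated. Tested at 500 µM. The record gives no direction; compounds that gave an IC50 in retests scored well above the rest, so higher reads as more growth inhibition. Of about 18,000 compounds tested this way, about 900 (5%) reached 50% or more in at least one test.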

Each number is a percent effect as filed. How 0% and 100% were set is not recorded. Most values in the screen are low, and negative values occur. The entries come from a sample that favours strong results. A dash means the value is not listed here; it may have been measured.

| structure | A | B |
|---|---|---|
| `CC(C)NC(=O)CNCc1ccc(Br)o1` | 46.33 | 37.43 |
| `O=S(=O)(CC(O)CO)C1Cc2ccccc2C1` (stereo not given) | - | -2.193 |
| `CNC(=O)c1cccc(CN)n1` | 7.094 | -2.139 |
| `CC(NC(=O)Cc1cccnc1)c1cn2ncsc2n1` (stereo not given) | 14.52 | - |
| `COCCN(Cc1ccco1)C(=O)c1cnc(C)cn1` | 13.27 | - |
| `O=C(Nc1nccs1)c1csnn1` | 4.084 | - |
| `Cc1nn(C)c(N(C)C)c1CNCc1nncn1C` | 8.87 | - |
| `CNC(=O)CNC(=O)c1ccc(C#N)c(C)n1` | -11.03 | -13.17 |
| `CN(C)S(=O)(=O)NCCNc1cccc(Br)c1` | 82.42 | 73.73 |
| `COc1ccc(C(N)c2ccncc2)cc1` (stereo not given) | 10.72 | 10.58 |
| `CN(Cc1ccoc1)C(=O)CN(C)C1CCS(=O)(=O)C1` (stereo not given) | - | -2.174 |
| `COC(=O)CS(=O)(=O)c1ccc(C)c(Cl)c1` | 80.75 | 118.5 |
| `c1cc2c(cc1CN1CCCCC1)CNCCO2` | -11.49 | - |
| `CC(c1ccccn1)N(C)S(C)(=O)=O` (stereo not given) | 7.752 | - |
| `CCn1nc(C)c(CO)c1C` | -2.56 | - |
| `N#Cc1ccnc(-n2ccnc2)c1` | -6.345 | - |
| `COc1cc(NC(=O)N2CCCN(C)CC2)ccc1Cl` | 29.47 | 7.824 |
| `CN(C)c1ncc(CO)n1C` | 8.126 | - |
| `O=C1CCCCN1Cn1cc(I)cn1` | 62.91 | 50.3 |
| `Cc1[nH]c(=O)[nH]c(=O)c1CCC(=O)Nc1ccn(C)n1` | -7.893 | - |
| `CNC(=O)C1CN(C(=O)Nc2cccc(C)c2)CCO1` (stereo not given) | 4.856 | - |
| `COCCN1CCCN(Cc2ccc(C)o2)CC1=O` | -6.875 | - |
| `CCC(CC)(CO)NCCn1cc(Br)cn1` | -1.142 | - |
| `Cc1cc(NC(=O)CN2CCSCC2)n(C)n1` | 10.38 | - |
| `Cc1nnc(NC(=O)CCNC(=O)C(C)C)s1` | -0.1096 | - |
| `Cc1ccc(S(=O)(=O)NCc2nnc(N)s2)cc1` | 25.77 | - |
| `COCCC1(C(=O)N(C)CC2CCCCO2)CCC1` (stereo not given) | - | -16.29 |
| `Clc1cnn(C2CCNC2)c1` (stereo not given) | 23.24 | - |
| `Cc1cccc(NC(=O)c2cnccn2)n1` | - | 1.165 |
| `Cc1c(Br)cnc(N)c1N` | -29.97 | - |
| `CC1CCCN(C(=O)c2ccc3nnnn3c2)C1` (stereo not given) | 3.153 | - |
| `COc1ccc(CC(=O)N2CCNCC2)cc1` | 7.064 | - |
| `NC(=O)c1cnc(NC2CCc3ccccc32)c(Cl)c1` (stereo not given) | 86.6 | 83.09 |
| `CN1CCOC(CNC(=O)CSCc2ccncc2)C1` (stereo not given) | -0.9291 | - |
| `NCc1ccc(-n2cc(Cl)cn2)cc1` | 0.591 | 13.71 |
| `COCc1ccc(C(=O)NC2CCC(O)CC2)cc1` (stereo not given) | 2.719 | - |
| `NC1CCC(F)(F)CC1` | - | -2.74 |
| `COCCNS(=O)(=O)c1ccc(C#N)cc1` | 2.864 | -16.04 |
| `CC(CN)S(C)(=O)=O` (stereo not given) | - | -0.4253 |
| `COc1ccc(C2CCCN2CC(=O)NC(N)=O)cc1` (stereo not given) | 24.22 | -3.096 |
| `COC(=O)CC1C(=O)NCCN1Cc1ccc(Br)o1` (stereo not given) | - | -22.7 |
| `COc1cc(-c2nnn(C)n2)ccc1O` | - | 14.72 |
| `Cc1occc1C(=O)NCC(C)CN1CCOCC1` (stereo not given) | 9.787 | - |
| `COC(=O)C(C)(CNC(C)=O)c1ccccc1` (stereo not given) | - | -0.6342 |
| `O=C1NCCNC1c1ccccc1Cl` (stereo not given) | 3.9 | - |
| `CN(C)S(=O)(=O)NCC(O)c1cccc(C(F)(F)F)c1` (stereo not given) | 27.02 | - |
| `CC(O)CN1C(=O)C=CC1=O` (stereo not given) | 107.4 | 114.8 |
| `CCC(NC(=O)COc1cccnc1)c1ccnn1C` (stereo not given) | - | -11.82 |
| `CN(CC(=O)Nc1sccc1C(N)=O)Cc1cccs1` | 74.28 | 67.4 |
| `OC1CCN(Cc2cc(Cl)c3c(c2)OCCO3)CC1` | 52.05 | - |
| `CCC(C)NC(=O)CCN1C(=O)CCC1=O` (stereo not given) | - | 1.246 |

The last 5 entries again:

For CC(O)CN1C(=O)C=CC1=O (stereo not given) the result was A: 107.4%; B: 114.8%.
For CCC(NC(=O)COc1cccnc1)c1ccnn1C (stereo not given) the result was B: -11.82%.
For CN(CC(=O)Nc1sccc1C(N)=O)Cc1cccs1 the result was A: 74.28%; B: 67.4%.
For OC1CCN(Cc2cc(Cl)c3c(c2)OCCO3)CC1 the result was A: 52.05%.
For CCC(C)NC(=O)CCN1C(=O)CCC1=O (stereo not given) the result was B: 1.246%.

Source: ChEMBL document CHEMBL3988442, “University of Dundee, Small-Polar-MMV Screening Library” (2021).